According to patent US20210395346A1 (SEOUL NATIONAL UNIVERSITY R AND DB FOUNDATION, published 2021):

Biological target: T1, recombinant SARS-CoV-2 S1 D614G protein (Sino Biological Inc.) (SARS-CoV-2)
T1 construct: domain: S1
Experiment: ELISA, scFv-hFc on coated protein (FIG. 14)

B1: E-3G9 scFv-hFc fusion protein (Fc fusion)
scFv: ELRMTQSPSSLSASVGDRVTIT[about 80 residues cut from this listing]FGQGTKLEIKGGSSRSSSSGGGGSGGGGQMQLVQSGAEVKKPGASVKVSCKASGHTITSYYMHWVRQAPGQGLEWMGIINPSGGSTSYAQKFQGRVTMTRDTSTSTVYMELSSLRSEDTAVYYCAREGVWDSSGYSSFDYWGQGTLVTVSS
- binding result: binds
